Experimental data: article PMC3057164, “Caffeoylquinic Acids Are Major Constituents with Potent Anti-Influenza Effects in Brazilian Green Propolis Water Extract” (Evidence-based Complementary and Alternative Medicine : eCAM, 2011)

Test system: influenza A virus strain A/WSN/33 (H1N1)
Settings: WSN/33 infected MDCK cells, Figures 2(b)-2(h)

Question: How did the “Effect on cell survival rate of virus-infected cells (effective / ineffective)” value turn out when baccharin was run?
Answer: Its value is “did not have any cell surviving activity”.
